From ChEMBL document CHEMBL3286203, “Reactive oxygen species (ROS) inducible DNA cross-linking agents and their effect on cancer cells and normal lymphocytes” (J Med Chem, 2014)

Columns and labels:
[1] = Induction of [32P]-labeled 49-mer oligonucleotide duplex DNA 12 interstrand cross-linking (unknown origin) at purine nucleotide site using compound radiolabeled at 3' of 12a in phosphate buffer at pH 7 at 90 degC after 30 mins by PAGE
[2] = Induction of [32P]-labeled 49-mer oligonucleotide duplex DNA 12 interstrand cross-linking (unknown origin) at purine nucleotide site using compound radiolabeled at 5' of 12a in phosphate buffer at pH 7 at 90 degC after 30 mins by PAGE
[3] = Induction of [32P]-labeled 49-mer oligonucleotide duplex DNA 12 interstrand cross-linking (unknown origin) at purine nucleotide site using compound radiolabeled at 3' of 12a at 90 deg C after 30 mins by PAGE in presence of piperidine
[4] = Induction of [32P]-labeled 49-mer oligonucleotide duplex DNA 12 interstrand cross-linking (unknown origin) at purine nucleotide site using compound radiolabeled at 5' of 12b in phosphate buffer at pH 7 at 90 degC after 30 mins by PAGE
[5] = Induction of [32P]-labeled 49-mer oligonucleotide duplex DNA 12 interstrand cross-linking (unknown origin) at purine nucleotide site using compound radiolabeled at 5' of 12b at 90 deg C after 30 mins by PAGE in presence of piperidine
[6] = Induction of [32P]-labeled 49-mer oligonucleotide duplex DNA 12 interstrand cross-linking (unknown origin) at purine nucleotide site using compound radiolabeled at 5' of 12a at 90 deg C after 30 mins by PAGE in presence of piperidine

Measured: Activity

Oc1ccc(N(CCCl)CCCl)cc1
active: all assays above

Activity calls are given as the source filed them.
